Record: PubChem BioAssay AID624099 (ICCB-Longwood, 2012)
Here is a random part of about 21,000 reagents. Of all reagents, 497 (2.4%) are marked active. 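Higher z means weaker E2 silencing; only reporter increases were scored, and knock-downs that hurt cell survival may mask genuine repressor factors.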 Entries without a mark were called inactive. Reagent sequences are not shown.

- Purpose: 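Human genes that papillomavirus E2 requires to repress the HPV18 LCR promoter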 (primary screen)
- Cell system: human C33A cervical carcinoma cells (HPV-negative) stably expressing BPV1 E2 and an HPV18 LCR luciferase reporter
- Reagents: siRNA pool against human genes, 40 nM
- Time to read-out: 72 h
- Read-out: 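Per-well luciferase luminescence, z-scored on each plate against the plate mean and SD with control wells left out, then averaged across three replicate plates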
- Scale: mean z-score and z-score: higher = stronger reporter signal, weaker E2 silencing
- Call rule: 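Hit if mean z-score reaches 2 and two or more of three replicate z-scores also reach 2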

| gene symbol | PubChem SID | mean z-score | z-score, replicate A | z-score, replicate B | z-score, replicate C |
| --- | --- | --- | --- | --- | --- |
| ZNF776 (zinc finger protein 776) | SID134322088 | -0.49 | -0.6 | -0.37 | -0.52 |
| CCDC117 (coiled-coil domain containing 117) | SID134322407 | -0.73 | -0.18 | -1.07 | -0.94 |
| PCDHB9 (protocadherin beta 9) | SID134317510 | 0.24 | 0.16 | 0.18 | 0.38 |
| PDPK1 (3-phosphoinositide dependent protein kinase 1) | SID56478472 | -0.48 | -0.25 | -0.63 | -0.55 |
| PSTPIP2 (proline-serine-threonine phosphatase interacting protein 2) | SID134320756 | -0.2 | 0.01 | -0.34 | -0.27 |
| ATP6V1E1 (ATPase H+ transporting V1 subunit E1) | SID134315917 | -1 | -1.38 | -0.61 | -1 |
| ZNF568 (zinc finger protein 568) | SID134325788 | 0.31 | 0.21 | 0.45 | 0.27 |
| ZNF568 (zinc finger protein 568) | SID134326917 | 1.28 | 1.24 | 1.44 | 1.15 |
| ZNF568 (zinc finger protein 568) | SID134328903 | -1.18 | -1.3 | -1.03 | -1.2 |
| LOC128629 (retired record) | SID134325985 | -0.98 | -1.38 | -0.95 | -0.61 |

Entries listed so far whose gene name begins with P or p:
| gene symbol | PubChem SID | mean z-score | z-score, replicate A | z-score, replicate B | z-score, replicate C |
| --- | --- | --- | --- | --- | --- |
| PCDHB9 (protocadherin beta 9) | SID134317510 | 0.24 | 0.16 | 0.18 | 0.38 |
| PDPK1 (3-phosphoinositide dependent protein kinase 1) | SID56478472 | -0.48 | -0.25 | -0.63 | -0.55 |
| PSTPIP2 (proline-serine-threonine phosphatase interacting protein 2) | SID134320756 | -0.2 | 0.01 | -0.34 | -0.27 |

Additional results follow.
| gene symbol | PubChem SID | mean z-score | z-score, replicate A | z-score, replicate B | z-score, replicate C |
| --- | --- | --- | --- | --- | --- |
| IL3 (interleukin 3) | SID134312920 | -0.52 | -0.55 | -0.55 | -0.47 |
| NT5C2 (5'-nucleotidase, cytosolic II) | SID134314167 | 0 | -0.06 | -0.22 | 0.28 |
| HACD1 (3-hydroxyacyl-CoA dehydratase 1) | SID134313599 | -1.14 | -1.18 | -1.08 | -1.15 |
| MCUR1 (mitochondrial calcium uniporter regulator 1) | SID134315221 | 0.18 | 0.02 | 0.38 | 0.13 |
| ZNF449 (zinc finger protein 449) | SID134320042 | -0.61 | -0.71 | -0.57 | -0.55 |
| SLC39A10 | SID134312611 | -1.07 | -0.9 | -1.3 | -1.01 |
| LINC00880 (long independently transcribed non-coding RNA 880) | SID134327385 | -0.23 | -0.1 | -0.14 | -0.44 |
| PRKD1 (protein kinase D1) | SID56478958 | -0.47 | -0.97 | -0.35 | -0.1 |
| CISD1P1 (CDGSH iron sulfur domain 1 pseudogene 1) | SID134325398 | 0.16 | -0.16 | 0.6 | 0.03 |
| CAPN11 (calpain 11) | SID134311228 | 0.82 | 0.73 | 0.94 | 0.8 |
| FCRL5 (Fc receptor like 5) | SID134315082 | 0.31 | 0.33 | 0.19 | 0.42 |
| COQ2 (coenzyme Q2, polyprenyltransferase) | SID134322224 | 0.33 | -0.11 | 0.78 | 0.33 |
| FGFBP3 (fibroblast growth factor binding protein 3) | SID134322195 | -0.18 | -0.47 | -0.11 | 0.04 |
